Assay results from patent USRE42152E1, “Aromatic-linked polyamine macrocyclic compounds with anti-HIV activity” (Genzyme Corporation, priority 1992, dated 2011).

Key:
HIV-1 (HTLV-IIIB) = assay type: cell-based; conditions: Selectivity Index, ratio of CC50 to IC50
HIV-2 (LAV-2 ROD) = test: MTT anti-viral screen, MT-4 cells challenged with HIV-2; assay type: cell-based; conditions: Selectivity Index, ratio of CC50 to IC50

Molecule	SI HIV-1 (IIIB) (HIV-1 (HTLV-IIIB))	SI HIV-2 (ROD) (HIV-2 (LAV-2 ROD))
Br.Br.Br.Br.Br.Br.Br.Br.Br.Br.O.O.O.O.O.c1cc(CN2CCCNCCNCCCNCC2)cc(-c2cc(CN3CCCNCCNCCCNCC3)ccn2)n1 [Compound K, 1,1′-[4,4′-(2,2′-Bipyridine)-bis-(methyl)]-bis-1,4,8,11-tetraazacyclotetradecane decahydrobromide pentahydrate]	300	334
c1ccc2c(CN3CCCNCCNCCCNCC3)ccc(CN3CCCNCCNCCCNCC3)c2c1 [E, 1,1′-[1,4-naphthylenebis(methylene)]bis-1,4,8,11-tetraazacyclotetradecane]	1014	1420
Brc1cc(CN2CCCNCCNCCCNCC2)ccc1CN1CCCNCCNCCCNCC1 [Y, 1,1′-[2-bromo-1,4-phenylenebis-(methylene)]-bis-1,4,8,11-tetraazacyclotetradecane]	>3.2 × 10^4	>5.7 × 10^4
Cc1cc(CN2CCCNCCNCCCNCC2)c(C)cc1CN1CCCNCCNCCCNCC1 [W, 1,1′-[2,5-dimethyl-1,4-phenylenebis-(methylene)]-bis-1,4,8,11-tetraazacyclotetradecane]	>3.2 × 10^4	>1.9 × 10^5
Br.Br.Br.Br.Br.Br.Br.Br.Br.Br.O.O.O.c1cc2ccc3ccc(CN4CCCNCCNCCCNCC4)nc3c2nc1CN1CCCNCCNCCCNCC1 [Compound L, 1,1′-[2,9-(1,10-Phenanthroline)-bis-(methylene)]-bis-1,4,8,11-tetraazacyclotetradecane decahydrobromide trihydrate]	>690	>625
Br.Br.Br.Br.Br.Br.c1cc(CN2CCNCCNCCNCC2)cc(CN2CCNCCNCCNCC2)c1 [Compound Q, 1,1′-[1,3-Phenylenebis-(methylene)]-bis-1,4,7,10-tetraazacyclododecane hexahydrobromide]	271	38
Br.Br.Br.Br.Br.Br.Br.Br.O.O.c1cc(CN2CCCNCCNCCNCCC2)ccc1CN1CCCNCCNCCNCCC1 [Compound M, 11,11′-[1,4-Phenylene-bis-(methylene)]-bis-1,4,7,11-tetraazacyclotetradecane octahydrobromide dihydrate]	>1.6 × 10^4	>7.1 × 10^3
1,1′-[1,4-Phenylene-bis-(methylene)]-bis-1,4,8,11-tetraazacyclotetradecane copper diacetate hexahydrate [Compound G]	>1.1 × 10^4	>7.4 × 10^3
c1cc(CN2CCCNCCNCCCNCC2)ccc1CN1CCCNCCNCCCNCC1 [Compound B, 1,1′-[1,4-phenylenebis(methylene)]bis-1,4,8,11-tetraazacyclotetradecane]	>8.3 × 10^4	>5 × 10^4
c1cc(CN2CCCNCCNCCCNCC2)cc(CN2CCCNCCNCCCNCC2)c1 [A, 1,1′-[1,3-phenylenebis(methylene)]bis-1,4,8,11-tetraazacyclotetradecane]	>1.5 × 10^4	>5 × 10^4
Br.Br.Br.Br.Br.Br.Br.Br.O.O.O.O.O.O.c1cc(CN2CCCNCCNCCCNCC2)ccc1CN1CCCNCCNCCNCCC1 [Compound N, 1,11′-[1,4-Phenylene-bis-(methylene)]-1,4,8,11-tetraazacyclotetradecane-1,4,7,11-tetraazacydotetradecane octahydrobromide hexahydrate]	>5 × 10^4	>7.1 × 10^3
Br.Br.Br.Br.Br.Br.c1cc(CN2CCNCCNCCNCC2)ccc1CN1CCNCCNCCNCC1 [Compound R, 1,1′-[1,4-Phenylenebis-(methylene)]-bis-1,4,7,10-tetraazacyclododecane hexahydrobromide]	170	23
Br.Br.Br.Br.Br.Br.Br.Br.O.O.O.O.c1cc(CN2CCCNCCNCCCNCC2)cc(-c2cccc(CN3CCCNCCNCCCNCC3)c2)c1 [Compound J, 1,1′-[3,3′-Biphenylene-bis-(methylene)]-bis-1,4,8,11-tetraazacyclotetradecane octahydrobromide tetrahydrate]	>1250	>900
Br.Br.Br.Br.Br.Br.Br.Br.O.O.O.O.c1cc(CN2CCCNCCNCCCNCC2)nc(CN2CCCNCCNCCCNCC2)c1 [Compound O, 1,1′-[2,6-Pyridinebis-(methylene)]-bis-1,4,8,11-tetraazacyclotetradecane octahydrobromide tetrahydrate]	>1.6 × 10^4	>6.2 × 10^3
O=[N+]([O-])c1cc(CN2CCCNCCNCCCNCC2)cc(CN2CCCNCCNCCCNCC2)c1 [Compound C, 1,1′-[5-nitro-1,3-phenylenebis-(methylene)]-bis-1,4,8,11-tetraazacyclotetradecane]	1100	756
Br.Br.Br.Br.Br.Br.Br.Br.Br.O.O.c1ncc(CN2CCCNCCNCCCNCC2)cc1CN1CCCNCCNCCCNCC1 [Compound P, 1,1′[3,5-Pyridinebis-(methylene)]-bis-1,4,8,11-tetraazacyclotetradecane nonahydrobromide dihydrate]	>1.2 × 10^4	>5.5 × 10^3
Clc1cc(CN2CCCNCCNCCCNCC2)c(Cl)cc1CN1CCCNCCNCCCNCC1 [X, 1,1′-[2,5-dichloro-1,4-phenylenebis-(methylene)]-bis-1,4,8,11-tetraazacyclotetradecane]	5461	2.4 × 10^4
Br.Br.Br.Br.Br.Br.Br.Br.c1cc(CN2CCCNCCNCCCNCC2)sc1CN1CCCNCCNCCCNCC1 [Compound T, 1,1′-[2,5-Thophenebis-(methylene)]-bis-1,4,8,11-tetraazacyclotetradecane octahydrobromide]	>5.0 × 10^4	>2.5 × 10^4
c1ccc(-c2cc(CN3CCCNCCNCCCNCC3)cc(CN3CCCNCCNCCCNCC3)n2)cc1 [Z, 1,1′-[6-phenyl-2,4-pyridinebis-(methylene)]-bis-1,4,8,11-tetraazacyclotetradecane]	5112	1.0 × 10^4
1,1′-[1,4-Phenylene-bis-(methylene)]-bis-1,4,8,11-tetraazacyclotetradecane zinc dichloride monohydrate [Compound F]	>7.6 × 10^4	>1 × 10^5
